According to patent US20100254928A1, “NOVEL COMPOSITION CONTAINING OZONIZED SURFACTANT” (priority 2007, published 2010):
Where “and” joins values, the source holds several entries; their conditions need not be identical. Equal entries are not always repeated.

Legend:
[1] = Deodorizing effect test; settings: 1% aqueous solution sprayed (0.94 mL) into 4 L bag; initial 50 ppm (Ex. 10: 60 ppm)
[2] = Detergency against dirt on the floor; parameters: key: Excellent: Obviously superior to POE (20 EO) lauryl ether; Good: Comparable to POE (20 EO) lauryl ether; Fair: Slightly inferior to POE (20 EO) lauryl ether; Poor: Obviously inferior to POE (20 EO) lauryl ether; settings: 0.2% aqueous solution, pH 7.2, room temperature, 3 panel members averaged
[3] = system: standard activated sludge; experiment: Biodegradability test (biochemical oxygen consumption)
[4] = activated sludge 30 mg/L, 25±1° C., listed as ozonized surfactant

| Compound | Ammonia concentration, 5 min after spraying [1] [ppm] | Ammonia concentration, 40 min after spraying [1] [ppm] | Detergency against dirt on the floor (Visually observed) [2] | further results |
| --- | --- | --- | --- | --- |
| CCCCCCCC/C=C\CCCCCCCC[N+](C)(C)CCCCCCCC/C=C\CCCCCCCC.[Cl-] [Unozonized surfactant of Ex. 10, dimethyldioleylammonium chloride] | 40 | 40 | – | – |
| Ozonized POE (10 EO) oleyl ether [Example 4] | – | – | Good to Excellent | Degradation, Day 7 [3, 4]: 24% and 21% and 23%; Degradation, Day 14 [3, 4]: 31% and 28% and 30%; Degradation, Day 15 [3, 4]: 40% and 38% and 37%; Degradation, Day 28 [3, 4]: 46% and 41% and 39%; average degradation based on the oxygen demand ([3]; in 28 days): 42% |
| Ozonized POE (20 EO) oleyl ether [Example 8] | – | – | Good to Excellent | – |
| Ozonized POE sorbitan monooleate (20 EO) [Example 7] | 0 | – | Excellent | – |
| Ozonized polyethylene glycol monooleate [Example 5] | 0 | – | Good to Excellent | – |
| POE (20 EO) lauryl ether | – | – | Good (benchmark) | – |
| POE (20 EO) oleyl ether | – | – | Fair | – |
| POE sorbitan monooleate (20 EO) | 30 | 30 | Fair | – |
| polyethylene glycol monooleate | 30 | 20 | Good | – |
| sodium alpha-olefin sulfonate [Unozonized surfactant of Ex. 9] | 25 | 20 | – | – |
